Anti-infective test results gathered from many reports (values: NIAID ChemDB through PubChem).

Common to all: host cell toxicity; measure: CC50

Two numbers with a dash give a range or band. CCn: concentration that lowers growth or viability of the cells by n%. Rows are shuffled and stem from different studies. An empty or dashed field is not shown.

smiles,cells,method,value
CS(=O)(=O)C1(c2ccc(C(=O)NC34CC(c5nc(-c6ccc(Cl)cn6)cs5)(C3)C4)o2)CC1,Primary human hepatocytes,absorbance,31.11 µM
Cc1c(Cl)cccc1-c1nc(=S)[nH][nH]1,Panc-1,MTT,>100 µg/mL
C=CCCCC(=O)NCC(c1ccc2c(c1)OCO2)C1OCCO1,RAJI,,<7.5 µM
CCCCNc1nccc(-c2c(-c3ccc(F)cc3)nn3c(NCCOC)cccc23)n1,VERO 76,,33 µM
O=C(CNc1cccc(F)c1)NCCc1ccc2c(n1)NCCC2,PBMC,,50 µM
CC(C)C[C@@H]1NC(=O)[C@H](Cc2c[nH]c3ccccc23)NC(=O)[C@H](CCCN=C(N)N)NC(=O)[C@H](CCCCN)NC(=O)[C@H](C(C)C)NC(=O)[C@@H](CC(C)C)NC1=O,Colorectal carcinoma,MTT,>30 µM
CC(=O)C[C@H]1C[C@H]2[C@H]([C@@H]3c4[nH]c5ccccc5c4CCN13)[C@H](O)C13CC/C=C\CCCCN1CC21CC/C=C\CCCNC13,H-116,,5 µg/mL
O=C(CCCCCCCCc1ccccc1)c1c(O)cc(O)cc1O,BC,resazurin,8.23 µg/mL
CCC(C)[C@@H]1NC(=O)[C@@H](C(C)C)NC(=O)[C@H](CC(C)C)NC(=O)[C@H](Cc2c[nH]c3ccccc23)NC(=O)CNC(=O)[C@H](CC(N)=O)NC1=O,Lung carcinoma cells,MTT,>30 µM
COc1cc(C)ccc1OCCOc1ccccc1F,BJ,,>20 µM
C[C@H](NC(=O)CCC(CCC(=O)N[C@@H](C)C(=O)O)(CCC(=O)N[C@@H](C)C(=O)O)NC(=O)CCOCC(COCCC(=O)NC(CCC(=O)N[C@@H](C)C(=O)O)(CCC(=O)N[C@@H](C)C(=O)O)CCC(=O)N[C@H](C)C(=O)O)(COCCC(=O)NC(CCC(=O)N[C@@H](C)C(=O)O)(CCC(=O)N[C@H](C)C(=O)O)CCC(=O)N[C@H](C)C(=O)O)COCCC(=O)NC(CCC(=O)N[C@@H](C)C(=O)O)(CCC(=O)N[C@H](C)C(=O)O)CCC(=O)N[C@H](C)C(=O)O)C(=O)O,CD4+ T-cell,MTS,>100 µM
Nc1cccc2c(-c3ccnc(NC4CCCC4)n3)c(-c3ccc(F)cc3)nn12,VERO 76,,18 µM
NNC(=O)c1ccncc1,Panc-1,MTT,>100 µg/mL
O=C(NCc1cccs1)c1nn2c(c1Cl)N[C@@H](c1ccco1)C[C@H]2C(F)(F)F,CA32 replicon cells,ATP,>100 µM
COc1cc(Nc2ncnc3ccc(-c4cccs4)cc23)ccc1N1CCOCC1,HUH 9B,,>25 µM
CCCCNc1cccc2c(-c3ccnc(NC4CC4)n3)c(-c3ccc(F)cc3)nn12,VERO 76,,126 µM
C/C1=C\[C@H](O)C[C@@](C)(O)/C=C/[C@H](C(C)C)CC/C(C)=C/CCC1,Neurons,MTT,>10 µM
Cc1cn(C2OC(CO)C(O)C2(F)F)c(=O)[nH]c1=O,CrFK,MTS,>100 µM
C=CCCC1=NCC(OC(C)=O)c2cc(OC)c(OC)cc21,BJ,,<7.5 µM
Nc1cc(OC[C@H]2CC[C@@H](CO)O2)ncn1,PC-3,,>250 µM
C/C=C/C(=O)O[C@@H]1[C@@H](C)[C@@]2(O)[C@@H](C=C(CO)C[C@]3(O)C(=O)C(C)=C[C@@H]23)[C@@H]2C(C)(C)[C@]12O,C8166,MTT,>200 µM
Brc1ccc2ncnc(Nc3ccc(N4CCOCC4)cc3)c2c1,HUH 9B,,>25 µM
Cc1c(-c2ccc(F)cc2)[nH]c2nc3c(ncn3COCCO)c(=O)n12,OST TK-/HSV-1 TK+,,0.043 µg/mL
Fc1ccc(-c2nn3c(NC4CCCC4)cccc3c2-c2ccnc(Nc3ccccc3)n2)cc1,VERO 76,,>40 µM
C/C(=N\NC(=O)c1ccc(Cl)cc1)c1cccc(/C(C)=N/NC(=O)c2ccc(Cl)cc2)n1,HL-60,MTT,1.78 µM
CCCCNc1nccc(-c2c(-c3ccc(F)cc3)nn3c(N4CCN(C)CC4)cccc23)n1,VERO 76,,5.5 µM
c1cc(-c2ccc3ncnc(Nc4ccc(N5CCOCC5)cc4)c3c2)cc(-n2cccn2)c1,HUH 9B,,10–25 µM
CC#Cc1cn([C@@H]2O[C@H](CO)[C@@H](O)[C@@]2(C)O)c2ncnc(N)c12,ET,,>50 µM
Nc1nccc(OC[C@H]2CC[C@@H](CO)O2)n1,CAKI-1,,156 µM
CCOC(=O)/C=C1\NCCc2cc3c(cc21)OCO3,RAJI,,<7.5 µM
COc1cccc(NC(=O)N=Nc2c(O)[nH]c3ccccc23)c1,hRD,,>25 µM
CC(C)C[C@@H]1NC(=O)[C@H](Cc2c[nH]c3ccccc23)NC(=O)[C@@H](CC2CCCCC2)NC(=O)[C@H](CCCCN)NC(=O)[C@H](C(C)C)NC(=O)[C@@H](CC(C)C)NC1=O,Lung carcinoma cells,MTT,>30 µM
COc1cc(O)c2c(c1)C(=O)C(CC(C)=O)=C(C)C2=O,MDA-MB-231,MTT,95.6 µg/mL
CS(=O)(=O)C1(c2ccc(C(=O)NC34CC(c5nc(-c6ccc(Cl)cc6)no5)(C3)C4)o2)CC1,Primary human hepatocytes,absorbance,112 µM
COc1ccc(-c2[nH]c3nc4c(ncn4COCCO)c(=O)n3c2C)cc1,OST TK-,,62 µg/mL
O=S(=O)(Cc1ccc(Cl)c(Cl)c1)NCCc1ccc2c(n1)NCCC2,PBMC,,50 µM
CS(=O)(=O)C1(c2nsc(C(=O)NC34CC(c5nc(-c6ccc(F)cc6)no5)(C3)C4)n2)CC1,Primary human hepatocytes,absorbance,79.8 µM
O=S(=O)(NCCc1ccc2c(n1)NCCC2)c1ccc(-c2ccccc2)cc1,PBMC,,50 µM
C=CCCC(=O)NC[C@H](O)c1ccc2c(c1)OCO2,RAJI,,<7.5 µM
O=c1c2ncn(COCCO)c2nc2[nH]c(-c3ccc(F)cc3)cn12,OST TK-/HSV-1 TK+,,0.27 µg/mL
Nc1nc(Cl)cc(OC[C@H]2CC[C@@H](COCc3ccccc3)O2)n1,CAKI-1,,120 µM
Cc1cc(Cl)ncc1NC(=O)NCCc1ccc2c(n1)NCCC2,PBMC,,50 µM
Oc1[nH]c2ccccc2c1N=NC(=S)Nc1ccccc1Cl,hRD,,>25 µM
C=CCSc1n[nH]c(-c2ccc([N+](=O)[O-])c(C(F)(F)F)c2)n1,THP-1,MTT,>100 µg/mL
Oc1[nH]c2ccccc2c1N=NC(=S)Nc1ccc(Br)cc1,hRD,,>25 µM
C#CCS(=O)(=O)c1nc(-c2ccc([N+](=O)[O-])c(C(F)(F)F)c2)n[nH]1,Panc-1,MTT,>100 µg/mL
Cc1c(-c2ccc(C(F)(F)F)cc2)[nH]c2nc3c(ncn3COCCO)c(=O)n12,OST TK-,,≥500 µg/mL
Cc1ccc(NC(=S)N=Nc2c(O)[nH]c3ccccc23)cc1,hRD,,>25 µM
C[C@@]1(O)[C@H](O)[C@@H](CO)O[C@H]1n1cc(C#CCN)c2c(N)ncnc21,ET,,>50 µM
CCCCCCCCC(=O)O[C@@H]1[C@@H](C)[C@]2(O)[C@@H]3C=C(C)C(=O)[C@@H]3CC(CO)=C[C@H]2[C@@H]2C(C)(C)[C@]12OC(=O)CCCCCCCC,C8166,MTT,59.6 µM
COC(=O)[C@H](C)NP(=O)(OC[C@H]1O[C@@H](n2cc(I)c(=O)[nH]c2=O)C(F)(F)[C@@H]1O)Oc1ccccc1,CrFK,MTS,>100 µM
Ic1ccc2ncnc(Nc3ccc(N4CCOCC4)cc3)c2c1,HUH 9B,,10–25 µM
CCn1c(O)c(N=NC(=S)Nc2ccccc2)c2ccccc21,hRD,,>25 µM
O=C(NCCc1ccc2c(n1)NCCC2)Oc1cccc(C(F)(F)F)c1,PBMC,,2.7 µM
CC(C)CCN(c1ccc(N2CCOCC2)cc1)c1ncnc2ccc(-c3cccs3)cc12,HUH 9B,,10–25 µM
C=C1C=C(C)[C@]2(C=C[C@H](C)O2)C(C)(C)C1,HL-60 cells,MTT,2.7 µM
COC1=CC(=O)c2c(O)c(C)c(CC(C)=O)c(O)c2C1=O,SupT1,MTT,2.7 µg/mL
O=C(NCCc1ccc2c(n1)NCCC2)Nc1cc(Cl)ccc1Cl,PBMC,,28.3 µM
CC(C)C[C@@H]1NC(=O)[C@H](Cc2c[nH]c3ccccc23)NC(=O)[C@@H](C(C)(C)C)NC(=O)[C@H](CCCCN)NC(=O)[C@H](C(C)C)NC(=O)[C@@H](CC(C)C)NC1=O,Lung carcinoma cells,MTT,>30 µM
Cc1ccc(CNC(=O)c2ccc3ncnc(Nc4ccc(N5CCOCC5)cc4)c3c2)cc1,HUH 9B,,>25 µM
COc1cc2c(cc1OC)C(CC1(C)OCCO1)=NCC2,BJ,,<7.5 µM
Fc1ccc(-c2n[nH]c(=S)s2)cc1,Panc-1,MTT,>100 µg/mL
COc1ccnc2[nH]cc(C(=O)C(=O)N3CCN(C(=O)c4ccccc4)C[C@H]3C)c12,HT-29,,>225 µM
O=C(NCCc1ccc2c(n1)NCCC2)Nc1cccc(-c2cccc(Cl)c2)n1,PBMC,,50 µM
Nc1cc(OC[C@H]2CC[C@@H](COCc3ccccc3)O2)nc(N)n1,PC-3,,130 µM
O=C(NCCc1ccc2c(n1)NCCC2)Nc1cc(C(F)(F)F)ccc1F,PBMC,,30 µM
CCN(CC)C(=S)N=Nc1c(O)[nH]c2ccccc12,hRD,,>25 µM
C=CCNc1cccc2c(-c3ccnc(NCCCC)n3)c(-c3ccc(F)cc3)nn12,VERO 76,,>40 µM
C#CCSc1n[nH]c(-c2ccc(C(F)(F)F)cc2)n1,Panc-1,MTT,>100 µg/mL
CCOC(=O)COc1ccccc1CN(C(=O)c1ccc(-c2ccc3c(c2)OCO3)cc1)C(C)C,HEK 293,,>20 µM
c1ccc(COC[C@H]2CC[C@@H](COc3cc(OC[C@H]4CC[C@@H](COCc5ccccc5)O4)ncn3)O2)cc1,PC-3,,17 µM
Nc1nc(=O)c2ncn([C@@H]3O[C@H](CO)[C@@H](O)[C@H]3O)c2c(=O)[nH]1,Daudi dividing cells,,>50 µM
CN(c1ccc(N2CCOCC2)cc1)c1ncnc2ccc(I)cc12,HUH 9B,,1–10 µM
Oc1[nH]c2ccccc2c1N=NC(=S)Nc1cccc(Cl)c1,hRD,,>25 µM
CC(C)N(c1ccc(N2CCOCC2)cc1)c1ncnc2ccc(-c3cccs3)cc12,HUH 9B,,>25 µM
CS(=O)(=O)C1(c2nsc(C(=O)NC34CC(c5nc(-c6ccc(Cl)cc6)no5)(C3)C4)n2)CC1,Primary human hepatocytes,absorbance,181.5 µM
Nc1nc(OC[C@H]2CC[C@@H](COCc3ccccc3)O2)c2[nH]cnc2n1,L1210,,140 µM
Cc1cc(NC(=O)NCCc2ccc3c(n2)NCCC3)cnc1Cl,PBMC,,50 µM
Cc1cccc(NC(=O)N=Nc2c(O)[nH]c3ccccc23)c1,hRD,,>25 µM
O=C(CCCCCCCCc1ccccc1)c1c(O)cccc1O,BC,resazurin,>60 µg/mL
Cc1cn([C@H]2C[C@H](N=[N+]=[N-])[C@@H](CO)O2)c(=O)[nH]c1=O,C8166,MTT,>200 µM
Cc1cc2c(cc1CNC(=O)C1=CN3C[C@H]4OC[C@H](C)N4C(=O)C3C(=O)C1=O)OCCO2,CEM-SS,XTT,>0.01 µM
CCCCCCCCCCCCCCCCCCCC(=O)O[C@@H]1[C@@H](C)[C@@]2(O)[C@@H](C=C(CO)C[C@]3(O)C(=O)C(C)=C[C@@H]23)[C@@H]2C(C)(C)[C@]12O,C8166,MTT,>200 µM
COC1=CC(=O)c2c(O)c(C)c3cc(C)oc3c2C1=O,MDA-MB-231,MTT,4.7 µg/mL

Repeating the final 11 entries:

smiles,cells,method,value
Oc1[nH]c2ccccc2c1N=NC(=S)Nc1cccc(Cl)c1,hRD,,>25 µM
CC(C)N(c1ccc(N2CCOCC2)cc1)c1ncnc2ccc(-c3cccs3)cc12,HUH 9B,,>25 µM
CS(=O)(=O)C1(c2nsc(C(=O)NC34CC(c5nc(-c6ccc(Cl)cc6)no5)(C3)C4)n2)CC1,Primary human hepatocytes,absorbance,181.5 µM
Nc1nc(OC[C@H]2CC[C@@H](COCc3ccccc3)O2)c2[nH]cnc2n1,L1210,,140 µM
Cc1cc(NC(=O)NCCc2ccc3c(n2)NCCC3)cnc1Cl,PBMC,,50 µM
Cc1cccc(NC(=O)N=Nc2c(O)[nH]c3ccccc23)c1,hRD,,>25 µM
O=C(CCCCCCCCc1ccccc1)c1c(O)cccc1O,BC,resazurin,>60 µg/mL
Cc1cn([C@H]2C[C@H](N=[N+]=[N-])[C@@H](CO)O2)c(=O)[nH]c1=O,C8166,MTT,>200 µM
Cc1cc2c(cc1CNC(=O)C1=CN3C[C@H]4OC[C@H](C)N4C(=O)C3C(=O)C1=O)OCCO2,CEM-SS,XTT,>0.01 µM
CCCCCCCCCCCCCCCCCCCC(=O)O[C@@H]1[C@@H](C)[C@@]2(O)[C@@H](C=C(CO)C[C@]3(O)C(=O)C(C)=C[C@@H]23)[C@@H]2C(C)(C)[C@]12O,C8166,MTT,>200 µM
COC1=CC(=O)c2c(O)c(C)c3cc(C)oc3c2C1=O,MDA-MB-231,MTT,4.7 µg/mL